A mixed list of measured activities; the numbers were collected in NIAID ChemDB.

Shared fields: growth or infection tests; organism: Reovirus; strain or isolate: TYPE 1; cells: VERO; read-out: EC50

An empty or dashed field is not shown.

SMILES	read by	value
Cc1ccn2c(C(SCCc3ccccc3)SCCc3ccccc3)cnc2c1		>1000 µM
Nc1ncnc2c1ncn2[C@@H]1O[C@H](/C=N/O)[C@@H](O)[C@@H]1O	cytopathic effect	>40 µg/mL
Nc1ncnc2c1ncn2C[C@H](O)CO	cytopathic effect	70 µg/mL
CC1(CO)CCC(Cn2nnc3c(=O)[nH]c(N)nc32)C1(C)C	cytopathic effect	>200 µg/mL
NC(=O)c1cncc([C@H]2O[C@H](CO)[C@H](O)[C@@H]2O)c1	cytopathic effect	≥100 µg/mL
Nc1ccn([C@@H]2OC[C@H](CO)[C@H]2O)c(=O)n1	cytopathic effect	>80 µg/mL
CC1(CO)CCC(Cn2nnc3c(Cl)ncnc32)C1(C)C	cytopathic effect	>40 µg/mL
OC[C@H]1O[C@@H](c2cncc(Br)c2)[C@@H](O)[C@@H]1O	cytopathic effect	≥100 µg/mL
Nc1ncnc2c1ncn2[C@H]1OC[C@@H](CO)C1O	cytopathic effect	>80 µg/mL
CC1(C)[C@@H](CO)CC[C@@]1(C)Cn1ccc(=O)[nH]c1=O	cytopathic effect	>400 µg/mL
Nc1ncnc2c1ncn2[C@@H]1O[C@H](CO)[C@](O)(C(F)(F)F)[C@H]1O	cytopathic effect	>200 µg/mL
Nc1ncnc2c1ncn2[C@@H]1C=C(CO)[C@@H](O)C1	cytopathic effect	20 µg/mL
Cc1cn(C(CF)CCCO)c(=O)[nH]c1=O	cytopathic effect	>400 µg/mL
NC(=S)c1cncc([C@@H]2O[C@H](CO)[C@@H](O)[C@@H]2O)c1	cytopathic effect	≥100 µg/mL
CC1(C)[C@@H](CO)CC[C@@]1(C)Cn1cc(Br)c(=O)[nH]c1=O	cytopathic effect	>400 µg/mL
CC1(CO)CCC(Cn2cnc3c(N)nc(N)nc32)C1(C)C	cytopathic effect	>40 µg/mL
CC(=O)OCCOCN1C(C)=CC(N)=[N+](c2ccccc2)S1(=O)=O		>400 µg/mL
N#Cc1cncc([C@@H]2O[C@H](CO)[C@H](O)[C@@H]2O)c1	cytopathic effect	≥100 µg/mL
CC(Sc1ncnc2c1cnn2COCCO)C(N)=O	cytopathic effect	>400 µg/mL
Nc1nccc2c1ncn2[C@@H]1C[C@H](CO)[C@@H](O)[C@H]1O	cytopathic effect	1 µg/mL
CC1(C)[C@@H](CCO)C[C@H]1n1nnc2c(N)nc(N)nc21	cytopathic effect	>200 µg/mL
NC1=CC(N)=NS(=O)(=O)N1COCCO		>400 µg/mL
O=c1[nH]n2c(-c3cn(-c4ccccc4)nc3-c3ccccc3)nnc2s1	cytopathic effect	>80 µg/mL
N#CC1=CN(COCCO)S(=O)(=O)N=C1N		>400 µg/mL
OC[C@H]1CC(n2cnc3c(NC4CC4)ncnc32)C[C@@H]1CO		>100 µg/mL
CC1(CO)CCC(Cn2nnc3c(N)ncnc32)C1(C)C	cytopathic effect	>40 µg/mL
Nc1ccn([C@@H]2C=C(CO)[C@@H](O)[C@H]2O)c(=O)n1	cytopathic effect	0.1 µg/mL
O=c1ccn([C@@H]2O[C@H](CO)[C@](O)(C(F)(F)F)[C@H]2O)c(=O)[nH]1	cytopathic effect	>400 µg/mL
Cc1ccn2c(C3SCCS3)cnc2c1		>1000 µM
O=c1[nH]c(=O)n(C2C[C@H](CO)[C@@H](CO)C2)cc1I		>100 µg/mL
CC(=O)OCCOCN1C(=O)C=CN(COCCO)S1(=O)=O		>400 µg/mL
CC1(C)[C@@H](CCO)C[C@H]1n1cnc2c(=O)[nH]c(N)nc21	cytopathic effect	>400 µg/mL
Nc1ncnc2c1ncn2[C@H]1C[C@H](O)[C@@H](C=O)O1	cytopathic effect	>200 µg/mL
c1ccc(-c2nn3c(-c4cn(-c5ccccc5)nc4-c4ccccc4)nnc3s2)cc1	cytopathic effect	>16 µg/mL
CC1(C)[C@@H](CO)CC[C@@]1(C)Cn1nnc2c(Cl)ncnc21	cytopathic effect	>400 µg/mL
Nc1nccc2c1ncn2[C@@H]1C[C@H](CO)[C@@H](O)[C@H]1O	cytopathic effect	4 µg/mL
Nc1nc(F)nc2c1ncn2[C@@H]1C=C(CO)[C@@H](O)[C@H]1O	cytopathic effect	0.7 µg/mL
OC[C@H]1O[C@@H](c2cc(/C=C/Br)c(F)cc2F)C[C@@H]1O	cytopathic effect	>16 µg/mL
NC(=O)c1cncc([C@@H]2O[C@H](CO)[C@@H](O)[C@@H]2O)c1	cytopathic effect	≥100 µg/mL
Nc1ncnc2c1ncn2[C@@H]1O[C@H](C=O)C[C@H]1O	cytopathic effect	>200 µg/mL
CCC(Sc1ncnc2c1cnn2COCC(O)CO)C(N)=O	cytopathic effect	>400 µg/mL
Nn1c(-c2cn(-c3ccccc3)nc2-c2ccccc2)n[nH]c1=S	cytopathic effect	>16 µg/mL
OC[C@H]1O[C@@H](c2cc(Cl)c(F)cc2F)C[C@@H]1O	cytopathic effect	>80 µg/mL
Cc1cn([C@H]2OC[C@@H](CO)C2F)c(=O)[nH]c1=O	cytopathic effect	>80 µg/mL
Nc1ncnc2c1ccn2[C@@H]1C[C@H](O)[C@@H](O)[C@H]1O		>0.7 µg/mL
CC1(CO)CCC(Cn2cnc3c(=O)[nH]cnc32)C1(C)C	cytopathic effect	>200 µg/mL
CC1(C)[C@@H](CCO)C[C@H]1n1nnc2c(=O)[nH]cnc21	cytopathic effect	150 µg/mL
CC(Sc1ncnc2c1cnn2COCC(O)CO)C(N)=O	cytopathic effect	>400 µg/mL
Nc1ncnc2c1ncn2C1CC(CO)[C@@H](O)[C@H]1O	cytopathic effect	2 µg/mL
C/C(O)=C1\C(=N)N(COCCO)S(=O)(=O)N=C1N		>400 µg/mL
Nc1ncnc2c1ncn2[C@@H]1C=C(CO)[C@@H](O)[C@@H]1O	cytopathic effect	70 µg/mL
Cc1ccn2c(C3OCCS3)cnc2c1		>1000 µM
Nn1c(SCC(=O)O)nnc1-c1cn(-c2ccccc2)nc1-c1ccccc1	cytopathic effect	>80 µg/mL
O=c1[nH]cnc2c1ncn2C1C[C@H](CO)[C@@H](CO)C1		>100 µg/mL
N#Cc1cncc([C@@H]2O[C@H](CO)[C@@H](O)[C@@H]2O)c1	cytopathic effect	≥100 µg/mL
Cc1cn(CCCC(O)CF)c(=O)[nH]c1=O	cytopathic effect	>400 µg/mL
Nc1ncnc2c1ncn2[C@@H]1O[C@H](C=NO)[C@@H](O)[C@H]1O	cytopathic effect	>1 µg/mL
NC(=O)c1cncc([C@@H]2O[C@H](CO)[C@H](O)[C@@H]2O)c1	cytopathic effect	≥100 µg/mL
CC1(CO)CCC(Cn2cnc3c(=O)[nH]c(N)nc32)C1(C)C	cytopathic effect	>400 µg/mL
NC1=Nn2c(nnc2-c2cn(-c3ccccc3)nc2-c2ccccc2)SC1	cytopathic effect	>16 µg/mL
Nc1ncnc2c1ncn2[C@H]1C[C@@H](O)[C@H](O)[C@@H]1O		7 µg/mL

9 of the rows above, restated:

SMILES	read by	value
CC1(C)[C@@H](CCO)C[C@H]1n1nnc2c(N)nc(N)nc21	cytopathic effect	>200 µg/mL
Nn1c(-c2cn(-c3ccccc3)nc2-c2ccccc2)n[nH]c1=S	cytopathic effect	>16 µg/mL
Nc1ncnc2c1ncn2[C@@H]1O[C@H](C=O)C[C@H]1O	cytopathic effect	>200 µg/mL
OC[C@H]1O[C@@H](c2cc(Cl)c(F)cc2F)C[C@@H]1O	cytopathic effect	>80 µg/mL
CC(Sc1ncnc2c1cnn2COCCO)C(N)=O	cytopathic effect	>400 µg/mL
Nc1nc(F)nc2c1ncn2[C@@H]1C=C(CO)[C@@H](O)[C@H]1O	cytopathic effect	0.7 µg/mL
Nc1ncnc2c1ncn2[C@H]1C[C@@H](O)[C@H](O)[C@@H]1O		7 µg/mL
NC(=O)c1cncc([C@H]2O[C@H](CO)[C@H](O)[C@@H]2O)c1	cytopathic effect	≥100 µg/mL
CC1(CO)CCC(Cn2cnc3c(=O)[nH]c(N)nc32)C1(C)C	cytopathic effect	>400 µg/mL

Conditions beyond the fields shown may differ between rows. ECn: concentration that inhibits the pathogen or its effect by n%.